Measured values from several laboratories, pooled; numbers as filed in NIAID ChemDB.

All rows: target-level tests; agent: HIV-1; target: Reverse transcriptase

ICn: concentration for n% inhibition. Two numbers with a dash give a range or band. Blank or dashed fields: not listed here. Neighbouring rows are from separate reports. Fold resistance has wild type as its base.

SMILES	read-out	strain	method	mutations	value
CCN1c2ncc(CCOc3ccc(C(=O)O)c4c3CCC4)cc2C(=O)N(C)c2cccnc21	fold resistance		nucleotide incorporation / radiometric	RT-K103N Y181C	1–10
CN1CCN(CCOC(C)(C)C#Cc2ccc(NC(=O)CSc3nnnn3-c3ccc(C4CC4)cc3Cl)c(Cl)c2)CC1	IC50	WT	PicoGreen / fluorescence		<1 µM
CCc1cc(NCc2nc3c(C)ccc(C)c3o2)c(=O)[nH]c1C	fold resistance		nucleotide incorporation	RT-Y181I	>6000
CCN1c2ncc(CCOc3ccc(CC(C)C(=O)O)c4ccccc34)cc2C(=O)N(C)c2ccc(Cl)nc21	fold resistance		nucleotide incorporation / radiometric	RT-K103N Y181C	1–10
Cc1cc(Cl)c(-n2nnnc2SCC(=O)Nc2ccc(C#CC(C)(C)O)cc2Cl)cc1C(F)(F)F	IC50		PicoGreen / fluorescence	RT-K103 Y181C	<1 µM
CCN1c2ncc(CCOc3ccc(C(=O)Nc4ccc(C(=O)O)cc4)cc3C)cc2C(=O)Nc2c(C)ccnc21	fold resistance	IIIB	nucleotide incorporation / radiometric	RT-K103N Y181C	1
CCN1c2ncc(CCOc3ccc(CC(=O)O)c4ccccc34)cc2C(=O)Nc2c(C)cc(F)nc21	fold resistance		nucleotide incorporation / radiometric	RT-V106A	1–10
CC(C)(C#Cc1ccc(NC(=O)CSc2nnnn2-c2ccc(C3CC3)cc2Cl)c(Cl)c1F)OCCN1CCNCC1	IC50		PicoGreen / fluorescence	RT-K103 Y181C	<1 µM
CCN1c2ncc(CCOc3ccc(CC(=O)O)c4c3CCCC4)cc2C(=O)N(C)c2cccnc21	fold resistance		nucleotide incorporation / radiometric	RT-V106A	>10
CCN1c2ncc(CCOc3ccc(-c4ccncc4)cc3C)cc2C(=O)N(C)c2cccnc21	fold resistance	IIIB	nucleotide incorporation / radiometric	RT-K103N Y181C	1
CCN1c2ncc(CCOc3ccc(CC(=O)O)c4c3CCCC4)cc2C(=O)N(C)c2ccc(F)nc21	fold resistance		nucleotide incorporation / radiometric	RT-V106A	>10
CCN1c2ncc(CCOc3ccc(C(=O)Nc4cccnc4C)cc3C)cc2C(=O)N(C)c2cccnc21	fold resistance	IIIB	nucleotide incorporation / radiometric	RT-K103N Y181C	1
CC(C)(C)c1ccc(-n2nnnc2SCC(=O)Nc2ccc(OCC(=O)NC(CO)C(=O)O)cc2Cl)c(Cl)c1	IC50		PicoGreen / fluorescence	RT-K103 Y181C	<1 µM
CCN1c2ncc(CCOc3ccc(C(=O)NC(C)(C)C(=O)O)cc3C)cc2C(=O)N(C)c2cccnc21	fold resistance	IIIB	nucleotide incorporation / radiometric	RT-K103N Y181C	>1
CC(C)(C)c1ccc(-n2nnnc2SCC(=O)Nc2ccc(-c3ncc[nH]3)cc2Cl)c(Cl)c1	IC50	WT	PicoGreen / fluorescence		<1 µM

For reference, 2 entries again:

SMILES | read-out | strain | method | mutations | value
CCN1c2ncc(CCOc3ccc(CC(C)C(=O)O)c4ccccc34)cc2C(=O)N(C)c2ccc(Cl)nc21 | fold resistance |  | nucleotide incorporation / radiometric | RT-K103N Y181C | 1–10
CCN1c2ncc(CCOc3ccc(C(=O)Nc4cccnc4C)cc3C)cc2C(=O)N(C)c2cccnc21 | fold resistance | IIIB | nucleotide incorporation / radiometric | RT-K103N Y181C | 1